Reference: paper PMC9916836
Construct, isoform or probe ends are uncertain for at least one entry. Tags and fusion partners may be left off the protein sequences shown.

Biological target: T1, UvrY-His6 (UniProt P66798)
T1 sequence (looked up, limits assumed): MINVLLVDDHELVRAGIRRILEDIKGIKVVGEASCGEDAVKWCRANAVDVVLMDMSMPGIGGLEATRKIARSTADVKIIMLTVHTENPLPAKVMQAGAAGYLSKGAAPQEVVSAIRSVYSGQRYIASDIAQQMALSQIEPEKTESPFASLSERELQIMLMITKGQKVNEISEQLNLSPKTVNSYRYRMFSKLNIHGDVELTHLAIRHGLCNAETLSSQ
Assay: EMSA
Settings: 20 mM acetyl phosphate, 3 mM MgCl2, 0-2 uM protein; recombinant protein; probe letters rebuilt from the primers and the genome

CGCTTACCCCAATCACTTACTTATGTAAGCTCCTGGGGATTCACTCGCTTGCCGCCTTCCTGTAACTCGAATTAAGTAGAGTATAGTGAAACGGTTCAGCTTGGTTTTTATTCTGTTTTATTTGTTTATGCAATGAGATCTATCTTATAAAGAGAAACGCTTAACTAAATGGAAATGCAATTATTAAAGTCGTTTGTTAACGAGATGATTTTCTTCTATATCATTGATTTTAAATGGATTTTAAAAATATATGATTTTTTTGTTGACATTTAATGATAATGTATTTTACACATTAGAAAAAAGAGAATAATAACATTTTAAGGTGGTTGTTTGATGAAATAGATGTGTCCTAATTTGATAGATAAACGTTATCTCACATAATTTATATCATTTGATTAATTGTTGGTCCTTCCTGATAAGGTCGCTAATAGCTTAAAATATTAAAGCATGCGGAGATTATTTATTATGA (double strand) [PLEE1 (ler promoter)]
binding result: binds
